Results of unrelated studies side by side (data: NIAID ChemDB).

All rows: whole-cell or culture tests; organism: Junin virus; cells: VERO; measure: EC50

ECn is the concentration giving n% inhibition of infection, replication or growth. An empty or dashed field is not shown. Rows are shuffled and stem from different studies.

Nc1ncnc2c1ncn2[C@@H]1C=C(CO)[C@@H](O)[C@H]1O ; value: 0.5 µg/mL
Nc1ccn([C@@H]2C[C@H](CO)[C@@H](O)[C@H]2O)c(=O)n1 ; value: 0.2 µg/mL
Nc1ncnc2c1ncn2CCCC(O)CF ; value: >50 µg/mL
CC[C@@H](C(C)C)[C@H](O)[C@@H](O)[C@@H](C)[C@H]1CC[C@H]2[C@@H]3CC(=O)[C@H]4C[C@H](O)[C@H](O)C[C@]4(C)[C@H]3CC[C@]12C ; strain or isolate: XJCI3 ; value: 1.8 µM
CC(C)=CCC[C@@H](COS(=O)(=O)O)C1CCC2C3CC[C@H]4C[C@H](OS(=O)(=O)O)[C@@H](O)CC4(C)C3CCC21C ; strain or isolate: IV4454 ; value: 67.4 µg/mL
Nc1ncnc2c1ncn2[C@@H]1O[C@H](CO)[C@](O)(C(F)(F)F)[C@H]1O ; value: 10 µg/mL
CC[C@@H](C(C)C)[C@@H](O)[C@H](O)[C@@H](C)[C@H]1CC[C@H]2[C@@H]3CC(=O)[C@H]4C[C@@H](Br)CC[C@]4(C)[C@H]3CC[C@]12C ; strain or isolate: IV4454 ; value: 0.8 µM
Nc1ncnc2c1ccn2[C@@H]1C[C@H](O)[C@@H](O)[C@H]1O ; value: 6 µg/mL
Nc1ncnc2c1ncn2[C@H]1C[C@@H](O)[C@H](O)[C@@H]1O ; value: 30 µg/mL
C=C[C@@H](O)C1=C[C@@H](n2cnc3c(N)ncnc32)[C@H](O)[C@@H]1O ; value: >50 µg/mL
C[C@@]1(O)[C@@H](CO)O[C@@H](n2cnc3c(N)ncnc32)[C@@H]1O ; value: 10 µg/mL
C#C[C@H](O)C1=C[C@@H](n2cnc3c(N)ncnc32)[C@H](O)[C@@H]1O ; value: >50 µg/mL
CC[C@@H](C(C)C)[C@H](O)[C@@H](O)[C@@H](C)[C@H]1CC[C@H]2[C@@H]3CC(=O)[C@H]4C[C@@H](OC(C)=O)CC[C@]4(C)[C@H]3CC[C@]12C ; strain or isolate: IV4454 ; value: 0.6 µM
Nc1ncnc2c1ncn2C(CF)CCCO ; value: >50 µg/mL

The first 2 rows once more:

| smiles | strain or isolate | value |
|---|---|---|
| Nc1ncnc2c1ncn2[C@@H]1C=C(CO)[C@@H](O)[C@H]1O |  | 0.5 µg/mL |
| Nc1ccn([C@@H]2C[C@H](CO)[C@@H](O)[C@H]2O)c(=O)n1 |  | 0.2 µg/mL |